Data on two proteins can be found in paper PMC6031611, “Mycobacterium tuberculosis CarD, an essential global transcriptional regulator forms amyloid-like fibrils” (Scientific Reports, 2018).

Data set [1] concerns the molecule itself. Briefly: SEC-SAXS. (In general: SEC sorts molecules by how far they enter the pores of the column.)
Data set [2] deals with the molecule itself. Briefly: MALDI-TOF intact mass spectrometry.

Where “and” joins values, the source holds several entries; their conditions need not be identical. Identical values can stand only once.

B1: C-terminal his-tagged CarD (CarD^His), Mycobacterium tuberculosis (natural protein)
chain: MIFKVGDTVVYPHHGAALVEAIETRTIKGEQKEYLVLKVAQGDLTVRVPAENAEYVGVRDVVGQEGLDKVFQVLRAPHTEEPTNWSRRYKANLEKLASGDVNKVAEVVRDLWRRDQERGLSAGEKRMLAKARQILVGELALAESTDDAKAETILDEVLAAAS
As to B1, the “stoichiometry N” value in data set [1] is 2.

B2: native tagless CarD, Mycobacterium tuberculosis (natural protein)
chain: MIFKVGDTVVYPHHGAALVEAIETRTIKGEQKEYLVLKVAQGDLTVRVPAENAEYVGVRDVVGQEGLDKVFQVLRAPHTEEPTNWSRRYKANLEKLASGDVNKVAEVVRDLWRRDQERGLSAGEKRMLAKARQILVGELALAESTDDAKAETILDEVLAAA
In the case of B2, the “stoichiometry N” value in data set [2] is 2 and 3.

For orientation: stoichiometry N means the number of molecules, sites or subunits per partner or assembly.
